One assay deals with Staphylococcus aureus. Description: Inhibition of Staphylococcus aureus MurA expressed in Escherichia coli assessed as residual activity at 100 uM using UNAG and PEP as substrate preincubated for 30 mins in presence of UNAG followed by PEP addition and measured after 15 mins by malachite green colorimetric assay relative to control. The settings on record: time 45.0 min.
Assay [1] relates to Escherichia coli. The experiment in a line: Inhibition of Escherichia coli MurA assessed as residual activity at 100 uM using UNAG and PEP as substrate preincubated for 30 mins in presence of UNAG followed by PEP addition and measured after 15 mins in presence of 5 mM cysteine by malachite green colorimetric assay relative to control. The settings on record: time 45.0 min. The method, boiled down: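 MurA from E. coli, with the enzyme diluted in Hepes pH 7.8 containing cysteine (15 mM in buffer, giving 5 mM in incubation). Preincubated with UNAG and compound for 30 min at 37 °C, then PEP added and reacted 15 min at 37 °C. Phosphate read by malachite green at 650 nm. Duplicates; residual activity is versus DMSO control.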

For assay [2], the system named is Escherichia coli. Description: Inhibition of Escherichia coli MurA assessed as residual activity at 100 uM using UNAG and PEP as substrate preincubated for 30 mins in presence of UNAG followed by PEP addition and measured after 15 mins by malachite green colorimetric assay relative to control. The settings on record: time 45.0 min.
The target of assay [3] is Cathepsin B (Homo sapiens) (UniProt P07858). Description: Inhibition of recombinant cathepsin B (unknown origin) exopeptidase activity expressed in Escherichia coli assessed as residual activity at 100 uM using Abz-GIVRAK(Dnp)-OH as substrate preincubated for 30 mins under shaking in presence of 5 mM cysteine followed by substrate addition relative to control.
For assay [4] the target is unchanged. The experiment in a line: Inhibition of recombinant cathepsin B (unknown origin) endopeptidase activity expressed in Escherichia coli assessed as residual activity at 100 uM using Z-RR-AMC as substrate preincubated for 30 mins under shaking in presence of 5 mM cysteine followed by substrate addition relative to control.

On to `O=C(CBr)c1ccc([N+](=O)[O-])cc1`, for which the Activity in the assay on Staphylococcus aureus turned out to be 1%; in the assay on Escherichia coli [1], 100%; with Escherichia coli [2], 1.5%; in assay [3], 27%; in assay [4], 58%.

(Values after ChEMBL document CHEMBL4680109, “A road map for prioritizing warheads for cysteine targeting covalent inhibitors” (Eur J Med Chem, 2018).)
